A word on the inhibition: it is the change of the read-out against control, counted positive when it falls.

Here are results for 99 compounds from PubChem BioAssay AID720596 (The Scripps Research Institute Molecular Screening Center, 2013).

Each structure is given as a SMILES string. The list shows a part of the results, in another mix than the full data. Some structures show a salt or complex split into parts, the way the source records it. Calls of active or inactive are those of the source. Cut-off read from the data, not from the text of the source: active = inhibition above about 24%; inactive = the rest.

The assay deals with Major prion protein (Homo sapiens) (UniProt P04156). Briefly: reduces human prion protein on the cell surface, primary screen, cell-based, TR-FRET (AID 720596). Note: 0% = median of the test wells and 100% = reference compound wells. To be noted: cell surface PrPC, TR-FRET read-out; at 13.8 µM; hits give high values.
Consider `O=[N+]([O-])c1cc([N+](=O)[O-])c(Nc2nnnn2CCO)c([N+](=O)[O-])c1`, for which the inhibition is inactive: -22.3%.
The figure for `CCOC(=O)C(CC)C1=NC(C)(C)Cc2ccccc21.O=[N+]([O-])c1cc([N+](=O)[O-])c(O)c([N+](=O)[O-])c1` (centres undefined) is inactive: -12%; for `CN1CCCCC1COC(=O)C1(O)c2ccccc2CCc2ccccc21` (centres undefined) it is inactive: -9.86%; for `COc1ccccc1OP(C)(=O)Nc1c(C)cccc1C` (centres undefined) it is inactive: 1.61%.
`COc1ccc(-c2ccccn2)cc1.O=[N+]([O-])c1cc([N+](=O)[O-])c(O)c([N+](=O)[O-])c1`: the inhibition is inactive: -13.1%.
The figure for `CCCOc1ccc(NP(C)(=O)Oc2ccc(Cl)cc2)cc1` (centres undefined) is inactive: 1.53%.
The figure for `CP(=O)(Nc1ccc(SC(F)(F)F)cc1)Oc1ccccc1` (centres undefined) is inactive: 2.51%; for `O=[N+]([O-])c1cc([N+](=O)[O-])c(-n2nnc3ccccc32)c([N+](=O)[O-])c1` it is inactive: -13.1%.
In the case of `CN(Cc1cccnc1)C(=O)COc1ccc(Cl)c(Cl)c1.O=[N+]([O-])c1cc([N+](=O)[O-])c(O)c([N+](=O)[O-])c1` it was inactive: -12.1%; in that of `O=[N+]([O-])c1cc([N+](=O)[O-])c(-c2cnn(-c3ccccc3)c2)c([N+](=O)[O-])c1`, inactive: -45.6%.
As to `Cc1nc2ccc3ccccc3c2s1.O=[N+]([O-])c1cc([N+](=O)[O-])c(O)c([N+](=O)[O-])c1`, the inhibition is inactive: -27.4%.
In the case of `COc1ccccc1OP(C)(=O)Nc1cccc(Br)c1` (centres undefined) it was inactive: 0.35%; in that of `CCOC(=O)c1ccc(NP(C)(=O)Oc2cc(C)cc(C)c2)cc1` (centres undefined), inactive: 4.24%; in that of `Cc1cc(C)cc(OP(C)(=O)Nc2ccc(C)cc2C)c1` (centres undefined), inactive: 0.49%.
In the case of `Cc1ccc(C)c(NP(C)(=O)Oc2ccccc2)c1` (centres undefined) it was inactive: -4.05%; in that of `Cc1cc(C)cc(OP(C)(=O)Nc2ccccn2)c1` (centres undefined), inactive: 2.58%; in that of `CP(=O)(Nc1cccc(Br)c1)Oc1ccccc1` (centres undefined), inactive: 14.1%.
The figure for `O=C(O)c1cccc(Nc2c([N+](=O)[O-])cc([N+](=O)[O-])cc2[N+](=O)[O-])c1` is inactive: -36.6%.
As to `CC1=NCCc2c1[nH]c1ccccc21.O=[N+]([O-])c1cc([N+](=O)[O-])c(O)c([N+](=O)[O-])c1`, the inhibition was inactive: -11.4%.
The figure for `O=[N+]([O-])c1cc([N+](=O)[O-])c(Nc2cccnc2)c([N+](=O)[O-])c1` is inactive: -28.8%; for `O=[N+]([O-])c1ccc2c(c1)C=Nc1ccccc1O2` it is inactive: -24.4%.
For the compound `CC(C)(C)c1ccc(OP(C)(=O)Nc2ccc(SC(F)(F)F)cc2)cc1` (centres undefined), the inhibition was inactive: -2.69%.
Regarding `Cc1cccc(C)c1OP(C)(N)=O` (centres undefined), the inhibition is inactive: 4.06%.
Consider `COc1ccccc1OP(C)(=O)Nc1ccc(C)cc1` (centres undefined), for which the inhibition is inactive: 1.02%.
As to `Cc1ccc(NP(C)(=O)Oc2ccccc2)c(C)c1` (centres undefined), the inhibition was inactive: 4.59%.
The figure for `CCOC(=O)c1ccc(NP(C)(=O)Oc2ccccc2)cc1` (centres undefined) is inactive: 1.81%; for `Cc1cc(C)cc(OP(C)(N)=O)c1` (centres undefined) it is inactive: 7.45%; for `COc1ccccc1OP(C)(=O)Nc1cc(Cl)ccc1C` (centres undefined) it is inactive: 4.99%.
Turning to `COc1ccc(OP(C)(=O)Nc2cccc(F)c2)cc1` (centres undefined), the inhibition was inactive: 3.18%.
In the case of `CCN(CC)CCCOC(=O)C(O)(c1ccccc1)c1ccccc1` it was inactive: -0.23%; in that of `COc1ccccc1-c1ccccn1.O=[N+]([O-])c1cc([N+](=O)[O-])c(O)c([N+](=O)[O-])c1`, inactive: -15.6%; in that of `CP(=O)(Nc1ccc(SC(F)(F)F)cc1)Oc1ccc(Cl)cc1` (centres undefined), inactive: -3.7%.
As for `Cc1cccc(C)c1OP(C)(=O)Nc1ccc(SC(F)(F)F)cc1` (centres undefined), the inhibition is inactive: 2.19%.
The figure for `CP(=O)(Oc1ccccc1)OC(c1ccccc1)C(F)(F)F` (centres undefined) is inactive: 3.47%; for `CP(=O)(NC(=O)Nc1ccccc1)Oc1ccccc1` (centres undefined) it is inactive: 3.37%; for `CCc1ccc(OP(C)(=O)N2CCN(c3ccc([N+](=O)[O-])cc3)CC2)cc1` (centres undefined) it is inactive: -21%.
On to `Cc1cc(C)cc(OP(C)(=O)Nc2ccc(SC(F)(F)F)cc2)c1` (centres undefined), for which the inhibition was inactive: -9.87%.
As to `O=[N+]([O-])c1cc([N+](=O)[O-])c(O)c([N+](=O)[O-])c1.c1ccc(Oc2ccncc2)cc1`, the inhibition was inactive: -23.8%.
In the case of `CCOC(=O)c1ccc(NP(C)(=O)Oc2ccc(OC)cc2)cc1` (centres undefined) it was inactive: 6.68%; in that of `CCOP(C)(=S)SCC(=O)NC(C)C(=O)O` (centres undefined), inactive: -5.05%.
Regarding `CP(=O)(Nc1ccccn1)Oc1ccc(Cl)cc1` (centres undefined), the inhibition was inactive: -0.88%.
With `CP(=S)(Nn1cnnc1)Oc1ccccc1` (centres undefined), the inhibition was inactive: 0.76%.
The figure for `CP(=O)(Nc1ccccc1Br)Oc1ccccc1` (centres undefined) is inactive: -1.89%; for `COc1ccccc1OP(C)(=O)Nc1ccccc1` (centres undefined) it is inactive: 3.82%; for `Nc1ccc2c(ccc3cccnc32)n1.O=[N+]([O-])c1cc([N+](=O)[O-])c(O)c([N+](=O)[O-])c1` it is inactive: -14.5%.
Turning to `CCOC(=O)c1ccc(NP(C)(=O)Oc2ccc(Cl)cc2)cc1` (centres undefined), the inhibition is inactive: 8.91%.
In the case of `CP(=O)(OC12CC3CC(CC(C3)C1)C2)OC12CC3CC(CC(C3)C1)C2` it was inactive: -6.84%; in that of `CCN(CC)CC(O)COC(=O)C(O)(c1ccccc1)C1CCCCC1` (centres undefined), inactive: -2.78%.
In the case of `COc1ccc(OP(C)(=O)Nc2ccc(Br)cc2)cc1` (centres undefined) it was inactive: 8.37%; in that of `COc1ccccc1OP(C)(=O)Nc1c(C)n(C)n(-c2ccccc2)c1=O` (centres undefined), inactive: -4.14%; in that of `O=C(OCCCN1CCCC1)C(O)(c1ccccc1)C1CCCCC1` (centres undefined), inactive: -0.79%.
Take `CP(=O)(Oc1ccccc1)N1CCOC1=O` (centres undefined): the inhibition is inactive: -2.29%.
The figure for `CCc1ccc(OP(C)(=O)Nc2cccnc2)cc1` (centres undefined) is inactive: -8.6%; for `COc1ccccc1OP(C)(=O)Nc1ccccc1Br` (centres undefined) it is inactive: 6.46%; for `CC(C)(C)c1ccc(OP(C)(=O)O)cc1` it is inactive: 2.47%.
The figure for `CP(=O)(Nc1ccc(Cl)cc1)Oc1ccc(F)cc1` (centres undefined) is inactive: 11.1%.
Turning to `CN(C)C(=O)c1c([N+](=O)[O-])cc([N+](=O)[O-])cc1[N+](=O)[O-]`, the inhibition is inactive: -33.4%.
In the case of `COc1ccccc1OP(C)(=O)Nc1ccc(Br)cc1` (centres undefined) it was inactive: 7.11%.
`COc1ccc(OP(C)(=O)Nc2ccccn2)cc1` (centres undefined): the inhibition was inactive: 1.14%.
The figure for `CN(C)CCOC(=O)C(O)(c1ccccc1)C1CCCC1` (centres undefined) is inactive: 4.09%.
Consider `Cc1c(NP(C)(=O)Oc2ccc(C(C)C)cc2)c(=O)n(-c2ccccc2)n1C` (centres undefined), for which the inhibition is inactive: -2.42%.
The figure for `O=[N+]([O-])c1cc([N+](=O)[O-])c(Nc2ccccn2)c([N+](=O)[O-])c1` is inactive: -29.9%; for `CP(=O)(Nc1ccccn1)Oc1ccccc1` (centres undefined) it is inactive: -2.47%; for `COc1ccccc1OP(C)(=O)Nc1ccc(C)cc1C` (centres undefined) it is inactive: -1.42%.
In the case of `CCc1ccc(OP(C)(=O)O)cc1` it was inactive: -0.23%; in that of `O=C1C(O)=C([N+](=O)[O-])C(=O)C(O)=C1[N+](=O)[O-]`, inactive: -9.43%.
The figure for `Cc1cc(C)cc(OP(C)(=O)Nc2cccc(C(F)(F)F)c2)c1` (centres undefined) is inactive: 0.67%.
Take `COc1ccccc1OP(C)(=O)Nc1ccc(C)c(C)c1` (centres undefined): the inhibition was inactive: -4.96%.
In the case of `COc1ccc(OP(C)(=O)Nc2ccccc2Br)cc1` (centres undefined) it was inactive: -1.13%; in that of `CCCCCCCCCCCCCCCC1C[N+](C)(C)CCOP(C)(=O)O1` (centres undefined), inactive: 11.8%; in that of `CP(=O)(Nc1ccc(Cl)cc1Cl)Oc1ccccc1` (centres undefined), inactive: -0.03%.
The figure for `CP(=O)(OCCOc1ccccc1)OCCOc1ccccc1` is inactive: 3.16%; for `CCN(CC)CCCNc1ccccc1[N+](=O)[O-].O=[N+]([O-])c1cc([N+](=O)[O-])c(O)c([N+](=O)[O-])c1` it is inactive: -23.1%; for `CCOC(=O)c1ccc(NP(C)(=O)Oc2ccc(F)cc2)cc1` (centres undefined) it is inactive: -2.17%.
In the case of `COc1ccc(OP(C)(=O)Nc2ccc(SC(F)(F)F)cc2)cc1` (centres undefined) it was inactive: -2.84%; in that of `Cc1c([N+](=O)[O-])cc([N+](=O)[O-])c(Br)c1[N+](=O)[O-]`, inactive: 4.54%; in that of `CCN(CC)CCCOC(=O)C(O)(c1ccccc1)C1CCCCC1` (centres undefined), inactive: 4.26%.
As for `CP(=O)(Nc1ccccc1)Oc1ccc(F)cc1` (centres undefined), the inhibition was inactive: -1.13%.
Take `CCCCCOc1ccc(NP(C)(=O)Oc2ccc(Cl)cc2Cl)cc1` (centres undefined): the inhibition is inactive: -0.44%.
With `O=[N+]([O-])c1cc([N+](=O)[O-])c(OC2CCCCC2O)c([N+](=O)[O-])c1` (centres undefined), the inhibition was inactive: -18.2%.
In the case of `O=[N+]([O-])c1cc([N+](=O)[O-])c(Nc2ccc(Cl)cc2)c([N+](=O)[O-])c1` it was inactive: -6.89%; in that of `CP(=O)(Nc1ccccc1F)Oc1ccccc1` (centres undefined), inactive: -0.69%.
In the case of `CC(C)c1ccc(OP(C)(=O)Nc2ccc(SC(F)(F)F)cc2)cc1` (centres undefined) it was inactive: -2.33%.
In the case of `O=C(OC1CN2CCC1CC2)c1ccc([N+](=O)[O-])cc1` (centres undefined) it was inactive: -19%.
As to `O=C(OCCN1CCN(CCOCc2ccccc2)CC1)C(O)(c1ccccc1)c1ccccc1`, the inhibition was inactive: 7.18%.
The figure for `COc1ccc2c(c1O)-c1c(O)c(OC)cc3c1[C@H](C2)[N+](C)(C)CC3.O=[N+]([O-])c1cc([N+](=O)[O-])c([O-])c([N+](=O)[O-])c1[O-]` is inactive: 5%; for `CP(=O)(Nc1ccc(SC(F)(F)F)cc1)Oc1ccc(F)cc1` (centres undefined) it is inactive: 9.7%.
The figure for `CCOP(C)(=S)SCC(=O)NC(C)(CC)C(=O)O` (centres undefined) is inactive: -4.86%; for `CCOP(=O)(CC)OCC` it is inactive: -6.84%.
With `CP(=O)(Nc1ccc2c(c1)OCCO2)Oc1ccccc1` (centres undefined), the inhibition is inactive: -2.72%.
In the case of `Cc1ccccc1NP(C)(=O)Nc1ccccc1C` it was inactive: -5.5%.
In the case of `O=[N+]([O-])c1cc([N+](=O)[O-])c(C(F)(F)F)c([N+](=O)[O-])c1O` it was inactive: -13.2%.
For the compound `COc1ccc(OP(C)(=O)Nc2cccc(Br)c2)cc1` (centres undefined), the inhibition was inactive: 5.21%.
In the case of `CN(C)CCOC(=O)C(O)(c1ccccc1)C1CCCCC1` (centres undefined) it was inactive: -2.68%; in that of `COc1ccc(NP(C)(=O)Oc2ccccc2OC)cc1` (centres undefined), inactive: 5.89%.
Regarding `O=[N+]([O-])c1ccc(OP2(=O)COCCO2)cc1` (centres undefined), the inhibition is inactive: -5.01%.
Turning to `O=[N+]([O-])c1cc([N+](=O)[O-])c(NCC2CCS(=O)(=O)C2)c([N+](=O)[O-])c1` (centres undefined), the inhibition was inactive: -37.4%.
In the case of `Cc1cc(-c2cccc3ccccc23)c(C)cn1.O=[N+]([O-])c1cc([N+](=O)[O-])c(O)c([N+](=O)[O-])c1` it was inactive: -8%.
Turning to `Cc1c(C(c2ccc3c(c2)OCO3)c2c(C)n(C)n(-c3ccccc3)c2=O)c(=O)n(-c2ccccc2)n1C.O=[N+]([O-])c1cc([N+](=O)[O-])c(O)c([N+](=O)[O-])c1`, the inhibition is inactive: 4.26%.
